Anti-infective test results gathered from many reports (values: NIAID ChemDB through PubChem).

Shared fields: whole-cell or culture tests; species: Mycobacterium avium intracellulare

ECn is the concentration giving n% inhibition of infection, replication or growth.

compound | strain or isolate | method | measure | result
C[C@@H](O)[C@H]1C(=O)N2C(C(=O)O)=C(SCCN=CN)C[C@H]12 | CIPT 140310054 | - | MIC | >10 µg/mL
CO[C@H]1/C=C/O[C@@]2(C)Oc3c(C)c(O)c4c(O)c(c5c(c4c3C2=O)NC2(CCN(CC(C)C)CC2)N=5)=NC(=O)/C(C)=C\C=C\[C@H](C)[C@H](O)[C@@H](C)[C@@H](O)[C@@H](C)[C@H](OC(C)=O)[C@@H]1C | N-551 (HIV-) | - | MIC | 0.4 µg/mL
CC1COc2c(C3(N)CC3)c(F)cc3c(=O)c(C(=O)O)cn1c23 | 31 strains | - | MIC50 | >100 µg/mL
C=C(CCC=C(C)C)[C@@H]1CC[C@@]2(C)O[C@H]2C1 | ATCC 19709 | - | EC50 | 10 µg/mL
CCCCCCCCOC(=O)c1cnccn1 | ATCC 13950 | - | MBC | 200 µg/mL
NC(=O)c1cc[n+](Cc2ccc(C[n+]3ccc(/C=N/O)cc3)s2)cc1.[Cl-].[Cl-] | - | resazurin | EC50 | >20 µg/mL
COc1cc(NC(C)CCCN)c2nc(C(C)(C)C)ccc2c1Oc1cccc(C(F)(F)F)c1 | - | - | EC50 | 1.5 µg/mL
NC(=S)c1cnccn1 | ATCC 13950 | - | MBC | 100 µg/mL
COc1c(O)c2c(=O)cc(OC)c3c4c(OC)cc(=O)c5c(O)c(OC)c6c(c(c1CC(C)(O)C6C(C)=O)c23)c54 | - | - | EC50 | 2.5 µg/mL
NC(=O)c1cc[n+](Cc2ccc(C[n+]3ccc(C(N)=O)cc3)o2)cc1.[Br-].[Br-] | - | resazurin | EC50 | >20 µg/mL
CCNC(=O)[C@@H](NC(=O)Cc1ccccc1)[C@@H]1N[C@@H](C(=O)NCCNC(=O)[C@@H]2N[C@@H]([C@H](NC(=O)Cc3ccccc3)C(=O)NCC)SC2(C)C)C(C)(C)S1 | CIPT 140310001 | - | MIC | 50 µg/mL
CC1COc2c(N3CCN(C)CC3)c(F)cc3c(=O)c(C(=O)O)cn1c23 | 31 strains | - | MIC50 | 50 µg/mL
CC[C@H]1OC(=O)[C@H](C)[C@@H](O[C@H]2C[C@@](C)(OC)[C@@H](OC(C)=O)[C@H](C)O2)[C@H](C)[C@@H](O[C@@H]2O[C@H](C)C[C@H](N(C)C)[C@H]2OC(=O)NN)C(C)(O)C[C@@H](C)/C(=N\OCCCC2CCCCC2)[C@H](C)[C@@H](O)[C@]1(C)O | 20066 (clarithromycin-susceptible) | - | MIC | 3.13 µg/mL
COc1cc2ccnc3c2c(c1OC(=O)c1ccc(F)cc1)N(C)C=C3 | - | - | EC50 | 3.5 µg/mL
CCCCCCCCCCCCO/N=C1\[C@H](C)CC(C)(O)[C@H](O[C@@H]2O[C@H](C)C[C@H](N(C)C)[C@H]2O)[C@@H](C)[C@H](OC2C[C@@](C)(OC)[C@@H](O)[C@H](C)O2)[C@@H](C)C(=O)O[C@H](CC)[C@@](C)(O)[C@H](O)[C@H]1C | 20066 (clarithromycin-susceptible) | - | MIC | 50 µg/mL
COc1cc2ccnc3c2c(c1O)N(C)C=C3 | - | - | EC50 | >15 µg/mL
CC1(C)S[C@@H]2[C@H](NC(=O)[C@H](C(=O)[O-])c3ccsc3)C(=O)N2[C@H]1C(=O)[O-].[Na+].[Na+] | CIPT 140310031 | - | MIC | 25 µg/mL
CCc1ccc(C(=O)Oc2c(OC)cc3ccnc4c3c2N(C)C=C4)cc1 | - | - | EC50 | 0.8 µg/mL
CCO/N=C1\[C@H](C)CC(C)(O)[C@H](O[C@@H]2O[C@H](C)C[C@H](N(C)C)[C@H]2O)[C@@H](C)[C@H](OC2C[C@@](C)(OC)[C@@H](O)[C@H](C)O2)[C@@H](C)C(=O)O[C@H](CC)[C@@](C)(O)[C@H](O)[C@H]1C | 20066 (clarithromycin-susceptible) | - | MIC | 6.25 µg/mL
C[C@@H]1CN(c2c(F)c(N)c3c(=O)c(C(=O)O)cn(C4CC4)c3c2F)C[C@H](C)N1 | 292 strains | - | Median MIC50 | 1 µg/mL
CO[C@H]1/C=C/O[C@@]2(C)Oc3c(C)c(=O)c4c(O)c(c5oc6cc(N7CCCC7)ccc6nc5c4c3C2=O)NC(=O)/C(C)=C\C=C\[C@H](C)[C@H](O)[C@@H](C)[C@@H](O)[C@@H](C)[C@H](OC(C)=O)[C@@H]1C | - | - | MIC50 | ≤0.3 µg/mL
CCCCCc1ccc(C(=O)Oc2c(OC)cc3ccnc4c3c2N(C)C=C4)cc1 | - | - | EC50 | 1 µg/mL
CN1CCN(c2c(F)cc3c(=O)c(C(=O)O)cn(CCF)c3c2F)CC1 | N-260 | - | MIC50 | 50 µg/mL
NNC(=O)c1ccncc1 | N-551 (HIV-) | - | MIC | 2 µg/mL
COc1cc2ccnc3c2c(c1OC(=O)c1cccc(F)c1F)N(C)C=C3 | - | - | EC50 | >15 µg/mL
O/N=C/c1ccc[n+](Cc2ccc(C[n+]3cccc(/C=N/O)c3)s2)c1.[Cl-].[Cl-] | - | resazurin | EC50 | >20 µg/mL
Cc1onc(-c2ccccc2Cl)c1C(=O)N[C@@H]1C(=O)N2[C@@H]1SC(C)(C)[C@@H]2C(=O)O | CIPT 140310054 | - | MIC | >100 µg/mL
CCCCC(=O)O[C@H]1[C@H](C)[C@@H](O[C@@H]2O[C@H](C)C[C@H](N(C)C)[C@H]2O)C(C)(O)C[C@@H](C)/C(=N\OCCCOc2ccccc2)[C@H](C)[C@@H](O)[C@](C)(O)[C@@H](CC)OC(=O)[C@@H]1C | 20066 (clarithromycin-susceptible) | - | MIC | 3.13 µg/mL
CC[C@H]1OC(=O)[C@H](C)[C@@H](O[C@H]2C[C@@](C)(OC)[C@@H](O)[C@H](C)O2)[C@H](C)[C@@H](O[C@@H]2O[C@H](C)C[C@H](N(C)C)[C@H]2O)[C@](C)(OC)C[C@@H](C)C(=O)[C@H](C)[C@@H](O)[C@]1(C)O | N-260 | - | MBC | 16 µg/mL
C[C@@H]1CN(c2c(F)c(N)c3c(=O)c(C(=O)O)cn(C4CC4)c3c2F)C[C@H](C)N1 | - | - | MIC50 | 6.25 µg/mL
CCCC(=O)O[C@H]1[C@H](C)OC(O[C@H]2[C@H](C)[C@@H](O[C@@H]3O[C@H](C)C[C@H](N(C)C)[C@H]3O)C(C)(O)C[C@@H](C)/C(=N\OCCCOc3ccccc3)[C@H](C)[C@@H](O)[C@](C)(O)[C@@H](CC)OC(=O)[C@@H]2C)C[C@@]1(C)OC | 20066 (clarithromycin-susceptible) | - | MIC | 0.78 µg/mL
COc1cc2ccnc3c2c(c1OC(=O)CSc1ccccc1)N(C)C=C3 | - | - | EC50 | >15 µg/mL
CCCC(=O)O[C@H]1[C@H](C)[C@@H](O[C@@H]2O[C@H](C)C[C@H](N(C)C)[C@H]2O)C(C)(O)C[C@@H](C)/C(=N\OCCCOc2ccccc2)[C@H](C)[C@@H](O)[C@](C)(O)[C@@H](CC)OC(=O)[C@@H]1C | 20066 (clarithromycin-susceptible) | - | MIC | 6.25 µg/mL
C[C@@H]1CN(c2c(F)c(N)c3c(=O)c(C(=O)O)cn(C4CC4)c3c2F)C[C@H](C)N1 | N-809 (HIV-) | - | MIC | 2 µg/mL
C=CCc1ccc(OC(=O)/C(C)=C/C)cc1 | ATCC 19709 | - | MBC | >20 µg/mL
COc1cc2ccnc3c2c(c1OC(=O)c1ccc(C)cc1)N(C)C=C3 | - | - | EC50 | 1 µg/mL
CO[C@H]1/C=C/O[C@@]2(C)Oc3c(C)c(O)c4c(O)c(c(/C=N/N5CCN(C6CCCC6)CC5)c(O)c4c3C2=O)NC(=O)/C(C)=C\C=C\[C@H](C)[C@H](O)[C@@H](C)[C@@H](O)[C@@H](C)[C@H](OC(C)=O)[C@@H]1C | 1023 | - | MIC | 1 µg/mL
CCCCCCCCO/N=C1\[C@H](C)CC(C)(O)[C@H](O[C@@H]2O[C@H](C)C[C@H](N(C)C)[C@H]2O)[C@@H](C)[C@H](OC2C[C@@](C)(OC)[C@@H](O)[C@H](C)O2)[C@@H](C)C(=O)O[C@H](CC)[C@@](C)(O)[C@H](O)[C@H]1C | 20066 (clarithromycin-susceptible) | - | MIC | 6.25 µg/mL
NC(=O)c1cc[n+](CCC[n+]2cccc(/C=N/O)c2)cc1.[Br-].[Br-] | - | resazurin | EC50 | >20 µg/mL
CC[C@H](C)C(=O)Oc1ccc([C@H]2O[C@@H]2C)cc1 | - | - | EC50 | 2.78 µg/mL
CO[C@H]1/C=C/O[C@@]2(C)Oc3c(C)c(O)c4c(=O)c(c5oc6cc(N7CCN(CC(C)C)CC7)cc(=O)c6nc5c4c3=C2O)NC(=O)/C(C)=C\C=C\[C@H](C)[C@H](O)[C@@H](C)[C@@H](O)[C@@H](C)[C@H](OC(C)=O)[C@@H]1C | N-481 (HIV-) | - | MIC | ≤0.0125 µg/mL

A second listing of 4 rows from above:

{"compound": "NNC(=O)c1ccncc1", "strain or isolate": "N-551 (HIV-)", "measure": "MIC", "result": "2 µg/mL"}
{"compound": "CO[C@H]1/C=C/O[C@@]2(C)Oc3c(C)c(O)c4c(O)c(c5c(c4c3C2=O)NC2(CCN(CC(C)C)CC2)N=5)=NC(=O)/C(C)=C\\C=C\\[C@H](C)[C@H](O)[C@@H](C)[C@@H](O)[C@@H](C)[C@H](OC(C)=O)[C@@H]1C", "strain or isolate": "N-551 (HIV-)", "measure": "MIC", "result": "0.4 µg/mL"}
{"compound": "CO[C@H]1/C=C/O[C@@]2(C)Oc3c(C)c(O)c4c(O)c(c(/C=N/N5CCN(C6CCCC6)CC5)c(O)c4c3C2=O)NC(=O)/C(C)=C\\C=C\\[C@H](C)[C@H](O)[C@@H](C)[C@@H](O)[C@@H](C)[C@H](OC(C)=O)[C@@H]1C", "strain or isolate": "1023", "measure": "MIC", "result": "1 µg/mL"}
{"compound": "NC(=O)c1cc[n+](CCC[n+]2cccc(/C=N/O)c2)cc1.[Br-].[Br-]", "method": "resazurin", "measure": "EC50", "result": ">20 µg/mL"}

An empty or dashed field is not shown. A number after MIC or MFC names an inhibition level or a share of isolates. Neighbouring rows are from separate reports.